Only a part is listed here, and it is no random draw. Calls of active or inactive are those of the source. Rule as the data show it: active = inhibition above about 50%; inactive = the rest.
The compounds below were run against Gag-Pol polyprotein (Human immunodeficiency virus type 1 group M subtype B (isolate HXB2)) (UniProt P04585) (assay: RNase H inhibition, HIV 1 Gag Pol polyprotein, FRET biochemical assay, screening (AID 372)). Details: HIV-1 RT RNase H, FRET RNA/DNA substrate fluorescence; at 10 µM; stronger effect = higher value.
In the case of N#CC(C#N)=Cc1ccc2c(c1)OCO2, the inhibition is reported as inactive: 12%.
In the case of CCCN1CCC(Nc2cccc(F)c2)CC1, the inhibition is reported as inactive: 6%.
In the case of CCOC(=O)N1CCC(Nc2cccc(C)c2)CC1, the inhibition is reported as inactive: 8%.
For N#CC(C#N)=Cc1cc2c(cc1[N+](=O)[O-])OCO2, the inhibition was inactive: 0%.
With CCOc1cc(C=C(C#N)C#N)ccc1O the inhibition was inactive: 11%.
With CC1CN(CCc2ccccc2)C(C)CC1=O (configuration not stated) the inhibition was inactive: 8%.
With CCOP(=S)(CC(=O)N(CC)CC)OCC the inhibition was inactive: 0%.

From PubChem BioAssay AID372 (MTDP, 2006)
